Results: BindingDB's records for 22299578 (Università degli Studi di Firenze, 2013)

Sequences of proteins named here, by UniProt entry; tags and fusion partners are left off. Residues count along the entry.
UniProt J0J440, 1-247: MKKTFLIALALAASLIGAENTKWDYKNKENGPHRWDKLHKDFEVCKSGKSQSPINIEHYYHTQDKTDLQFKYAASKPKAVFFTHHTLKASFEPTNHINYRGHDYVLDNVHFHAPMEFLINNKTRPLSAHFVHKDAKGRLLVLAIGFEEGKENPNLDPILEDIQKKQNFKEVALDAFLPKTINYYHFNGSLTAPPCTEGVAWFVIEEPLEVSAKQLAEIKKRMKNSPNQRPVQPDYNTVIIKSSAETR
UniProt Q08IJ2, 1-221: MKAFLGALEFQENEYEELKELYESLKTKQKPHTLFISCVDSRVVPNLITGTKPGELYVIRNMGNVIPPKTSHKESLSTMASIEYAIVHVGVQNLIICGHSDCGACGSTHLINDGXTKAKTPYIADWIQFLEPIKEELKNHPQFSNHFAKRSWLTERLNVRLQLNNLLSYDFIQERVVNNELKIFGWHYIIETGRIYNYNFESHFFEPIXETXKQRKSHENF

Experiments:
Alpha-carbonic anhydrase = Alpha-carbonic anhydrase (Helicobacter pylori, UniProt J0J440); assay: CA Inhibition Assay; conditions: pH 7.5
Carbonic anhydrase = Carbonic anhydrase (Helicobacter pylori, UniProt Q08IJ2); assay: CA Inhibition Assay; conditions: pH 7.5

| Compound | pKi (Alpha-carbonic anhydrase) | pKi (Carbonic anhydrase) |
| --- | --- | --- |
| N#CO | 3.22 | 3.43 |
| O=[As](O)(O)c1ccccc1 | 3.36 | 4.04 |
| [O]=[V]([OH])([OH])[O][V](=[O])([OH])[OH] | 3.57 | 3.74 |

pKi: −log10 of the molar value.
